Measured values from several laboratories, pooled; numbers as filed in NIAID ChemDB.

Common to all: whole-cell or culture tests; organism: Candida albicans; read-out: MIC

Blank or dashed fields: not listed here. Lines come from different laboratories, so protocols vary.

smiles	strain	setting	value
Clc1ccc(C(Cn2ccnc2)OC/C=C/c2ccccc2)cc1	CDCB385	-	128 µg/mL
CSc1ccc2c(=O)n([C@H](C)[C@](O)(Cn3cncn3)c3ccc(F)cc3F)cnc2c1	406 strains	-	≤0.03 µg/mL
O=C(CN1CCOCC1)Nc1ccc2oc(-c3ccc(F)cc3)nc2c1	ATCC 10145	-	50 µg/mL
Clc1ccc(/C(Cn2ccnc2)=N\OCc2ccccc2)cc1	CA7	-	16 µg/mL
O=C1CC(c2ccc(Cl)cc2)N(OCCc2nc3ccccc3o2)C(c2ccc(Cl)cc2)C1	-	-	50 µg/mL
CC(C)N=C(N)c1ccc2nc(-c3ccc4c(c3)Cc3cc(-c5nc6ccc(C(N)=NC(C)C)cc6[nH]5)ccc3-4)[nH]c2c1	Isolate 1 (strain 2-76)	-	1.56 µg/mL
Clc1ccc(CO/N=C2/c3ccccc3OCC2n2cnnc2)c(Cl)c1	ATCC 10231	-	64 µg/mL
CO[C@@H]1C[C@H](C[C@@H](C)[C@@H]2CC(=O)[C@H](C)/C=C(\C)[C@@H](O)[C@@H](OC)C(=O)[C@H](C)C[C@H](C)/C=C/C=C/C=C(\C)[C@H](N(O)C(=O)N(C)C)C[C@@H]3CC[C@@H](C)[C@@](O)(O3)C(=O)C(=O)N3CCCC[C@H]3C(=O)O2)CC[C@H]1C(=O)ON(C)O	38247	-	100 µg/mL
Cc1c(C(=O)c2ccc(Cl)cc2)oc2ccc(Cl)cc12	Clinical isolate	-	25 µg/mL
c1ccc(C(Cn2ccnc2)OCc2cccc3ccccc23)cc1	CA7	-	128 µg/mL
Nc1ncnc2c1ncn2[C@@H]1O[C@H](C(=O)O)[C@@H](NC(=O)C(N)Cc2ccc(F)cc2)[C@H]1O	FP633	-	25 µg/mL
c1ccc(CO/N=C(/Cn2ccnc2)c2ccccc2)cc1	CA12	-	128 µg/mL
CC(C)(C)c1ccc(-c2nc3cc(NC(=O)CN4CCOCC4)ccc3o2)cc1	ATCC 10145	-	50 µg/mL
COc1ccc(/C(=N\OCc2ccc(Cl)cc2)c2cc3ccccc3o2)cc1	-	-	16 µg/mL
Fc1cccc(CO/N=C2\c3ccccc3OCC2n2cncn2)c1	ATCC 10231	-	64 µg/mL
COc1ccc(C2CC(=O)CC(c3ccc(OC)cc3)N2OCCc2nc3ccccc3o2)cc1	-	-	50 µg/mL
Fc1ccc(/C(Cn2ccnc2)=N/OCc2ccccc2)cc1	CA12	-	>128 µg/mL
CCS(=O)c1nnc(-c2cc([N+](=O)[O-])ccc2-c2ccco2)s1	ATCC 10231	-	25 µg/mL
O=C(c1ccc(Cl)cc1)c1oc2ccccc2c1Cn1ccnc1	NRRL Y-27077	-	25 µg/mL
C[C@@H](n1cnc2cc(OCC(F)(F)F)ccc2c1=O)[C@](O)(Cn1cncn1)c1ccc(F)cc1F	76 strains	-	0.31 µg/mL
Nc1ncnc2c1ncn2[C@@H]1O[C@H](C(=O)O)[C@@H](NC(=O)C(N)CSCc2cccnc2)[C@H]1O	FP633	-	0.8 µg/mL
C=C(CF)CN1C[C@H](OC[C@@]23C[C@@H]4[C@H](C)CC[C@H]4[C@@]4(C=O)C[C@@H]2CC(C(C)C)[C@@]34C(=O)O)O[C@H](C)C1	4711E	-	≤0.001 µg/mL
CC(=O)O/N=C(\c1ccccc1)c1cc2ccccc2o1	-	-	4 µg/mL
CC(SC[C@@H](N)C(=O)N[C@H]1[C@@H](O)[C@H](n2cnc3c(N)ncnc32)O[C@@H]1C(=O)O)c1ccccc1	FP633	-	50 µg/mL
CCO/N=C(\c1ccc(OC)cc1)c1cc2ccccc2o1	-	-	4 µg/mL
Fc1cccc(CO/N=C2/c3ccccc3OCC2n2cncn2)c1	ATCC 10231	-	32 µg/mL
Cc1c(/C(=N\O)c2ccccc2)oc2ccccc12	NRRL Y-27077	-	25 µg/mL
C[C@@H](n1cnc2cc(N)c(F)cc2c1=O)[C@](O)(Cn1cncn1)c1ccc(F)cc1F	60 strains	-	5 µg/mL
C[C@H]1[C@H](O)[C@@H](C)/C=C/C=C/C=C/C=C/C=C/C=C/C=C/[C@H](O[C@@H]2O[C@H](C)[C@@H](O)[C@H](N)[C@@H]2O)C[C@@H]2O[C@](O)(C[C@@H](O)C[C@@H](O)CC[C@H](O)[C@@H](O)C[C@@H](O)CC(=O)O[C@H]1C)C[C@H](O)[C@H]2C(=O)O	ATCC64545	-	0.5 µg/mL
Clc1ccc(C(Cn2ccnc2)OCc2ccc(-c3ccccc3)cc2)cc1	CA6	-	>128 µg/mL
Cc1c(O)cccc1C(=O)N[C@@H](CSc1ccccc1)[C@H](O)CN1C[C@H]2CCCC[C@H]2C[C@H]1C(=O)NC(C)(C)C	I139A	-	>64 µg/mL
Nc1ncnc2c1ncn2[C@@H]1O[C@H](C(=O)O)[C@@H](NC(=O)C(N)CSCc2ccc(O)cc2)[C@H]1O	FP633	-	0.2 µg/mL
CCSc1nnc(-c2cccc([N+](=O)[O-])c2)s1	ATCC 10231	-	>100 µg/mL
Cc1ccc2oc(/C(=N/O)c3ccc(Cl)cc3)c(C)c2c1	NRRL Y-27077	-	5 µg/mL
CC(C)(C)c1ccc(COC(Cn2ccnc2)c2ccc(Cl)cc2)cc1	Y0109	-	>128 µg/mL
CN1CCN(CC(=O)Nc2ccc3oc(-c4ccc(C(C)(C)C)cc4)nc3c2)CC1	ATCC 10145	-	50 µg/mL
C=CCN1C[C@H](OC[C@@]23C[C@@H]4[C@H](C)CC[C@H]4[C@@]4(C=O)C[C@@H]2CC(C(C)C)[C@@]34C(=O)O)O[C@H](C)C1	CL-236	-	0.008 µg/mL
CO[C@H]1C[C@@H]2CC[C@@H](C)[C@@](O)(O2)C(=O)C(=O)N2CCCC[C@H]2C(=O)O[C@H]([C@H](C)C[C@@H]2CC[C@@H](C(=O)ON3CCOCC3)[C@H](OC)C2)CC(=O)[C@H](C)/C=C(\C)[C@@H](O)[C@@H](OC)C(=O)[C@H](C)C[C@H](C)CCCC/C=C/1C	10231	-	>100 µg/mL
COc1c(O)c2c(=O)cc(OC)c3c4c(OC)cc(=O)c5c(O)c(OC)c6c(c(c1CC(C)(O)C6C(C)=O)c23)c54	-	-	1.41 µg/mL
O=C(O/N=C(\c1ccccc1)c1cc2ccccc2o1)c1ccccc1	-	-	4 µg/mL
CCS(=O)(=O)c1nnc(-c2ccc([N+](=O)[O-])cc2)s1	ATCC 10231	-	50 µg/mL
NCCCC[C@H](N)C(=O)N[C@H]1[C@@H](O)[C@H](n2cnc3c(N)ncnc32)O[C@@H]1C(=O)O	FP633	-	>100 µg/mL
C[C@H](n1cnc2cc(C(F)(F)F)ccc2c1=O)[C@](O)(Cn1cncn1)c1ccc(F)cc1F	60 strains	-	≤0.03 µg/mL
Clc1ccc(/C(Cn2ccnc2)=N/OCc2ccccc2)cc1	CDCB385	-	4 µg/mL
CO[C@@H]1C[C@H](C[C@@H](C)[C@@H]2CC(=O)[C@H](C)/C=C(\C)[C@@H](O)[C@@H](OC)C(=O)[C@H](C)C[C@H](C)/C=C/C=C/C=C(\C)[C@@H](N(O)C(=O)N(C)C)C[C@@H]3CC[C@@H](C)[C@@](O)(O3)C(=O)C(=O)N3CCCC[C@H]3C(=O)O2)CC[C@H]1C(=O)ON(C)O	62376	-	100 µg/mL
Cc1c(/C(=N/O)c2ccc(Cl)cc2)oc2ccc(Cl)cc12	Clinical isolate	-	12.5 µg/mL
CC(C)(C)c1ccc(COC(Cn2ccnc2)c2ccc(Cl)cc2Cl)cc1	CA12	-	128 µg/mL
COc1ccc(CN2C[C@H](OC[C@@]34C[C@@H]5[C@H](C)CC[C@H]5[C@@]5(C=O)C[C@@H]3CC(C(C)C)[C@@]45C(=O)O)O[C@H](C)C2)cc1	4711E	-	≤0.001 µg/mL
CCCSc1ccc2nc(NC(=O)OC)[nH]c2c1	92-1729	24 h	5 µg/mL
CO[C@@H]1C[C@H](C[C@@H](C)[C@@H]2CC(=O)[C@H](C)/C=C(\C)[C@@H](O)[C@@H](OC)C(=O)[C@H](C)C[C@H](C)/C=C/C=C/C=C(\C)[C@H](N(OC)C(=O)N(C)C)C[C@@H]3CC[C@@H](C)[C@@](O)(O3)C(=O)C(=O)N3CCCC[C@H]3C(=O)O2)CC[C@H]1C(=O)ON(C)O	579A	-	>100 µg/mL
C[C@@H](n1cnc2cc(OCC(F)F)ccc2c1=O)[C@](O)(Cn1cncn1)c1ccc(F)cc1F	76 strains	-	40 µg/mL
CO[C@H]1C[C@@H]2CC[C@@H](C)[C@@](O)(O2)C(=O)C(=O)N2CCCC[C@H]2C(=O)O[C@H]([C@H](C)C[C@@H]2CC[C@@H](C(=O)ON3CCCCC3)[C@H](OC)C2)CC(=O)[C@H](C)/C=C(\C)[C@@H](O)[C@@H](OC)C(=O)[C@H](C)C[C@H](C)CCCC/C=C/1C	579A	-	>100 µg/mL
Fc1ccc(CCCCn2c3c(c4cc(F)ccc42)CNCC3)cc1	1378-48	-	1 µg/mL
CCCCOc1ccc(CC(=O)Nc2ccc3oc(-c4ccccc4)nc3c2)cc1	ATCC 10145	-	25 µg/mL
CS(=O)c1nnc(Cc2cc([N+](=O)[O-])ccc2-c2ncc[nH]2)s1	ATCC 10231	-	12.5 µg/mL
Fc1ccc(CO/N=C2\c3ccccc3OCC2n2cncn2)cc1	ATCC 10231	-	64 µg/mL
CC1C(=O)C(C)C(c2ccccc2)N(OCCc2nc3ccccc3o2)C1c1ccccc1	-	-	100 µg/mL
Clc1ccc(/C(Cn2ccnc2)=N/OCc2ccccc2)c(Cl)c1	PR1	-	8 µg/mL